Indirect CD4 T-cell killing (viable CFSE-positive CD4 T-cells) and viral replication in HLACs (p24gag FLAQ assay) data for 1 substance are collected here from patent US9956260.

This assay has as its target HIV-1 gp41 of GIA-SKY (T20-dependent virus) (HIV-1 (NL4-3 mutant)). Description: cell-based or functional assay.

Take enfuvirtide (T20) (peptide): the indirect CD4 T-cell killing (viable CFSE-positive CD4 T-cells) was 1 µg/mL and the viral replication in HLACs (p24gag FLAQ assay) came out at 1 µg/mL.
